Compound potency records, mixed from different reports. Data source: NIAID ChemDB in PubChem.

Shared fields: tests in culture; agent: HIV-1

Conditions beyond the fields shown may differ between rows.

Nc1nc(NC2CC2)c2ncn([C@H]3C=C[C@@H](CO)C3)c2n1 ; strain: Recombinant ; changes: RT-M41L A62V S68N G112S V118I M184V ; cells: HeLa ; read by: luciferase ; read-out: EC50 ; result: 1.15 µM
CC(C)CN(C[C@@H](O)[C@H](Cc1ccccc1)NC(=O)O[C@H]1CCOC1)S(=O)(=O)c1ccc(N)cc1 ; strain: NL4-3 ; changes: PR-D30N M46I A71V ; cells: MT-4 ; read by: p24 ; read-out: EC90 ; result: 0.04 µM
O=c1[nH]cnc2c1ncn2[C@H]1CC[C@@H](CO)O1 ; strain: HXB2 ; changes: RT-L74V ; cells: HT4 + HT4 LacZ-1 ; read by: plaque count ; read-out: fold resistance ; result: 8
Cc1ccnc2c1NC(=O)c1cccnc1N2C1CC1 ; cells: MT-4 ; read-out: EC95 ; result: 0.4 µM
CC(=O)N1CCC(C(=O)N(CCCN2CCC(Cc3ccc(C(N)=O)cc3)CC2)c2ccc(C)c(Cl)c2)CC1 ; strain: R5 subtype B_7 recombinant ; cells: U87 (CD4+ CCR5+) + U87 ; read by: luciferase ; read-out: EC50 ; result: 0.01 µM
CC[C@H](C)[C@H](C(=O)O)N1C[C@H](CN2CCC(c3cc(Cc4ccc5ccccc5c4)nn3CC)CC2)[C@@H](c2cccc(F)c2)C1 ; strain: BaL ; cells: HeLa ; read by: β-galactosidase ; read-out: EC90 ; result: <0.00014 µM
O=C1N(Cc2ccc(CO)cc2)[C@H](Cc2ccccc2)[C@H](O)[C@@H](O)[C@@H](Cc2ccccc2)N1Cc1ccc(CO)cc1 ; strain: PB clinical isolate ; cells: PBMC ; read by: p24 ; read-out: inhibition ; dose: 0.13 µM ; result: 90%
c1cc(CN2CCCNCCNCCCNCC2)ccc1CN1CCCNCCNCCCNCC1 ; strain: CM235 CLADE E R5 ; cells: PBMC ; read by: p24 ; read-out: inhibition ; dose: 0.5 µM ; result: 22%
CCOc1ccc(Cc2cc(C3CCN(C[C@H]4CN([C@@H](C(=O)O)C5CCCCC5)C[C@@H]4c4cccc(F)c4)CC3)n(CC)n2)cc1 ; strain: BaL ; cells: HeLa ; read by: β-galactosidase ; read-out: EC90 ; result: <0.00014 µM
CC(C)CN(C[C@@H](O)[C@H](Cc1ccccc1)NC(=O)[C@H](CC(N)=O)NC(=O)c1ccc2ccccc2n1)C(=O)NC(C)(C)C ; strain: NL4-3 ; changes: PR-M46I ; cells: MT-4 ; read by: p24 ; read-out: EC95 ; result: 0.2 µM
Cc1cn([C@H]2C[C@H](N=[N+]=[N-])[C@@H](CO)O2)c(=O)[nH]c1=O ; strain: Recombinant ; changes: RT-V118I M184V ; cells: HeLa ; read by: luciferase ; read-out: EC50 ; result: 0.024 µM
CCn1nc(Cc2ccc(OC)cc2)cc1C1CCN(C[C@H]2CN([C@@H](C(=O)O)C3CCCCC3)C[C@@H]2c2cccc(F)c2)CC1 ; strain: BaL ; cells: HeLa ; read by: β-galactosidase ; read-out: EC90 ; result: <0.00014 µM
C[C@H](Cn1cnc2c(N)ncnc21)OCP(=O)(O)O ; strain: Recombinant ; changes: RT-M41L A62V S68N G112S M184V ; cells: HeLa ; read by: luciferase ; read-out: fold resistance ; result: 0.5
O=C1Nc2ccc(Cl)cc2[C@@](C#CC2CC2)(C(F)(F)F)O1 ; changes: K65R ; cells: Primary T lymphocytes ; read by: p24 / ELISA ; read-out: EC90 ; result: 0.02 µM
Cc1cc(S(N)(=O)=O)ccc1NC(=O)COc1ccc(Cl)cc1C(=O)c1cc(Cl)cc(C#N)c1 ; strain: NNRTI-resistant (RT V106I) ; changes: RT-V106I ; cells: MAGI ; read by: β-galactosidase ; read-out: EC50 ; result: 0.0011 µM
CC[C@@H](C)[C@H](C(=O)O)N1C[C@H](CN2CCC(c3cc(Cc4cccc5ccccc45)nn3CC)CC2)[C@@H](c2cccc(F)c2)C1 ; strain: BaL ; cells: HeLa ; read by: β-galactosidase ; read-out: EC90 ; result: <0.00014 µM
N#CC[C@H](C1CCCC1)n1cc(-c2ncnc3[nH]ccc23)cn1 ; cells: Macrophage ; read by: p24 / ELISA ; read-out: EC90 ; result: 3.1 µM
O=S(=O)(O)c1cc(N=C=S)ccc1/C=C/c1ccc(N=C=S)cc1S(=O)(=O)O ; strain: GB8 ; cells: JM ; read by: p24 ; read-out: inhibition ; dose: 100 µg/mL ; result: 99.8%
CCn1nc(Cc2cc(F)cc(F)c2)cc1C1CCN(C[C@H]2CN([C@@H](C(=O)O)C3CCCCC3)C[C@@H]2c2cccc(F)c2)CC1 ; strain: BaL ; cells: HeLa ; read by: β-galactosidase ; conditions: 50% human serum ; read-out: EC90 ; result: 0.011 µM
O=C(O)P(=O)(O)O ; strain: IIIB ; cells: PBL ; read by: RT activity ; conditions: 14 d ; read-out: inhibition ; dose: 16 µM ; result: 67%
CC[C@H](C)[C@H](C(=O)O)N1C[C@H](CN2CCC(c3cc(Cc4ccc(S(=O)(=O)c5ccccc5)cc4)nn3CC)CC2)[C@@H](c2cccc(F)c2)C1 ; strain: BaL ; cells: HeLa ; read by: β-galactosidase ; read-out: EC90 ; result: <0.00014 µM
Cc1cn([C@H]2C=C[C@@H](CO)O2)c(=O)[nH]c1=O ; changes: M184V ; cells: Primary T lymphocytes ; read by: p24 / ELISA ; read-out: EC90 ; result: 2.6 µM
CCn1nc(Cc2ccc(F)c(F)c2)cc1C1CCN(C[C@H]2CN([C@@H](C(=O)O)C(C)C)C[C@@H]2c2cccc(F)c2)CC1 ; strain: BaL ; cells: HeLa ; read by: β-galactosidase ; read-out: EC90 ; result: 0.0074 µM
CC(C)(C)NC(=O)[C@@H]1C[C@@H]2CCCC[C@@H]2CN1C[C@@H](O)[C@H](Cc1ccccc1)NC(=O)[C@H](CC(N)=O)NC(=O)c1ccc2ccccc2n1 ; strain: NL4-3 ; changes: PR-L63P ; cells: MT-4 ; read by: p24 ; read-out: EC95 ; result: 0.05 µM

2 of the rows above, restated:

SMILES | strain | changes | cells | read by | conditions | read-out | dose | result
CC(=O)N1CCC(C(=O)N(CCCN2CCC(Cc3ccc(C(N)=O)cc3)CC2)c2ccc(C)c(Cl)c2)CC1 | R5 subtype B_7 recombinant | - | U87 (CD4+ CCR5+) + U87 | luciferase | - | EC50 | - | 0.01 µM
Nc1nc(NC2CC2)c2ncn([C@H]3C=C[C@@H](CO)C3)c2n1 | Recombinant | RT-M41L A62V S68N G112S V118I M184V | HeLa | luciferase | - | EC50 | - | 1.15 µM

An empty or dashed field is not shown. Fold resistance has wild type as its base. Percent inhibition refers to the dose given; in toxicity tests it is the harm to the cells. ECn: concentration that inhibits the pathogen or its effect by n%.